PubChem BioAssay AID1259414 – Drosophila RNAi Screening Center | 2018
The screen tested about 24,000 reagents; this is an unselected part of those that have a named target and a result. Over the whole deposit, about 1,210 (5%) were called active. 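Inactive calls also include excluded dsRNAs with several or no targets, genes unexpressed in JW18, and well A1, regardless of score.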 Names joined by + are all predicted targets of the reagent. No sequences are given here.

- Assay: 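Genome-wide screen for host control of endosymbiont load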 (primary screen)
- System: Drosophila JW18 cells infected with Wolbachia
- Reagents: long dsRNA against Drosophila genes, 0.25 µg dsRNA per well of a 384-well plate
- Time to read-out: 5 days
- Treatment: cells persistently infected with Wolbachia before knock-down; no added drug
- Detection: 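Automated imaging of bacterial rRNA staining divided by host cell count, reported as plate-normalised robust z-score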
- Scale: Wolbachia per cell robust z: higher = more Wolbachia per host cell than the plate typical
- Hit rule: 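Active if absolute robust z reaches 1.5 in two or more of three replicates, leaving out multi- or no-target dsRNAs, genes unexpressed in JW18 and A1 wells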

target | DRSC id | Wolbachia per cell robust z, rep 1 | Wolbachia per cell robust z, rep 2 | Wolbachia per cell robust z, rep 3 | Outcome
Srrm234 (Serine-arginine repetitive matrix 2/3/4) | DRSC07955 | 0.829 | -0.0961 | 0.666 | inactive
Srrm234 (Serine-arginine repetitive matrix 2/3/4) | DRSC08606 | -0.33 | 0.329 | 1.32 | inactive
CG4119 | DRSC17741 | -0.573 | -0.972 | -0.27 | inactive
CG4119 | DRSC27945 | 1.16 | -0.224 | 0.00149 | inactive
BG642312 | DRSC37799 | 1.06 | -4.63 | 1.38 | inactive
CG5565 | DRSC00690 | -4.57 | -0.055 | -0.364 | inactive
CG5565 | DRSC41350 | -0.36 | -1.29 | 0.218 | inactive
dpr19 (defective proboscis extension response 19) | DRSC02237 | 0.385 | -1.54 | -2.1 | active
CG42693 | DRSC41441 | -0.0477 | -0.2 | -2 | inactive
Dronc (Death regulator Nedd2-like caspase) | DRSC11231 | 0.807 | -7 | 1.14 | inactive
Taf12L (TBP-associated factor 30kD subunit alpha-2) | DRSC00467 | 0.264 | 0.493 | 2.42 | inactive
CG17343 | DRSC02606 | -1.37 | -5.69 | 1.17 | inactive
CG17343 | DRSC22807 | -0.797 | 0.118 | -1.13 | inactive
CG17343 | DRSC28706 | -1.75 | -1.76 | -2.73 | inactive
HmgZ (HMG protein Z) | DRSC03888 | -0.614 | 0.381 | -11.9 | inactive
HmgZ (HMG protein Z) | DRSC04620 | 0.558 | -0.473 | -0.922 | inactive
CG15533 | DRSC15069 | -3.92 | -1.69 | 0.978 | inactive
CG15533 | DRSC30031 | -5.11 | -1.01 | 0.175 | inactive
CG31275 | DRSC16919 | -1.08 | 0.673 | 1.21 | inactive
otk (off-track) | DRSC07658 | 0.352 | -1.78 | 0.53 | inactive
otk (off-track) | DRSC29192 | -0.495 | 0.5 | 0.214 | inactive
Lim1 (LIM homeobox 1) | DRSC17752 | -4.91 | 0.502 | -0.855 | inactive
Lim1 (LIM homeobox 1) | DRSC40764 | 0.371 | 0.597 | 1.22 | inactive
Cyp4g1 (Cytochrome P450 4g1) | DRSC18459 | -0.89 | -5.14 | -0.44 | inactive
Cyp4g1 (Cytochrome P450 4g1) | DRSC29899 | -6.53 | 0.566 | -0.643 | inactive
Hpr1 | DRSC12296 | -2.86 | -5.86 | -0.4 | active
hpRNA:CR32205 (hairpin RNA:CR32205) | DRSC09610 | -0.676 | 0.218 | -0.602 | inactive
hpRNA:CR32205 (hairpin RNA:CR32205) | DRSC09890 | -0.764 | -0.934 | -0.759 | inactive
hpRNA:CR32205 (hairpin RNA:CR32205) | DRSC28015 | -0.532 | 0.347 | 0.642 | inactive
DIP-gamma (Dpr-interacting protein gamma) | DRSC14873 | -1.69 | -0.106 | 0.25 | inactive
fs(1)Yb (female sterile (1) Yb) | DRSC18777 | 0.214 | 0.573 | -1.03 | inactive
DEF8 (differentially expressed in FDCP 8 homolog) | DRSC09840 | -1.07 | -0.39 | -0.982 | inactive
cN-IIIB (cytosolic 5'-nucleotidase IIIB) | DRSC04359 | -0.067 | 0.165 | -2.49 | inactive
cN-IIIB (cytosolic 5'-nucleotidase IIIB) | DRSC41406 | 1.03 | -0.494 | 0.148 | inactive
koko + Vti1b | DRSC16283 | -7.75 | 0.86 | -4.54 | active
koko + Vti1b | DRSC16284 | -0.00787 | -1.18 | 0.71 | inactive
CG11106 | DRSC19381 | 0.56 | 0.515 | 0.033 | inactive
CG12219 | DRSC17829 | 0.529 | -0.0543 | 0.398 | inactive
CG12219 | DRSC24690 | -0.0695 | -0.548 | -0.179 | inactive
Elba1 (Early boundary activity 1) | DRSC00276 | -2.82 | -0.102 | -1.43 | inactive
Elba1 (Early boundary activity 1) | DRSC24062 | -5.64 | 1.07 | -4.21 | inactive
mt:ND3 (mitochondrial NADH-ubiquinone oxidoreductase chain 3) | DRSC40643 | 0.388 | 0.622 | 0.85 | inactive
enc (encore) | DRSC08716 | 0.754 | 0.517 | -4.36 | inactive
enc (encore) | DRSC27545 | 1.66 | -0.154 | -0.112 | inactive
Chd64 | DRSC08649 | -2.34 | 0.276 | -1.44 | inactive
Chd64 | DRSC28823 | -0.217 | 0.253 | 0.961 | inactive
CG43998 + CG43999 | DRSC14605 | -0.456 | -0.924 | -0.937 | inactive
CG5321 | DRSC19940 | 0.815 | 0.0477 | -1.45 | inactive
CG5321 | DRSC22802 | -2.13 | 0.332 | -0.501 | inactive
CG5321 | DRSC27348 | 0.188 | -0.275 | -6.45 | inactive
Psa (Puromycin sensitive aminopeptidase) | DRSC08152 | 0.68 | -0.986 | -1.94 | inactive
Lcch3 (Ligand-gated chloride channel homolog 3) | DRSC22175 | -0.55 | 0.207 | -0.443 | inactive
CG17378 | DRSC02616 | -5.19 | -0.244 | -0.554 | inactive
vig (vasa intronic gene) | DRSC03630 | -2.98 | -0.48 | -3.63 | active
vig (vasa intronic gene) | DRSC21672 | -0.133 | -1.6 | -1.24 | inactive
CG32259 | DRSC08082 | 0.0367 | 1.07 | 0.0735 | inactive
Prip | DRSC07044 | 0.152 | -0.416 | -1.43 | inactive
Prip | DRSC26459 | -1.6 | 0.176 | 0.294 | inactive
dbf (doublefault) | DRSC02570 | -0.622 | 0.0948 | -0.52 | inactive
dbf (doublefault) | DRSC27207 | -1.1 | 1.09 | -1.57 | inactive
CG32161 | DRSC22128 | 0.0594 | -0.15 | 0.67 | inactive
NPFR (Neuropeptide F receptor) | DRSC12173 | -0.429 | -1.31 | 0.0118 | inactive
CG7798 | DRSC07047 | 0.573 | 0.0112 | -0.113 | inactive
CG13309 | DRSC09980 | 0.722 | 0.102 | 0.986 | inactive
RIC-3 (RIC3 acetylcholine receptor chaperone) | DRSC04243 | 1.62 | 0.708 | 0.89 | inactive
RIC-3 (RIC3 acetylcholine receptor chaperone) | DRSC04543 | -0.526 | -0.855 | -0.82 | inactive
yuri (yuri gagarin) | DRSC01453 | -0.0209 | -6.54 | 0.863 | inactive
yuri (yuri gagarin) | DRSC01943 | -0.579 | 1.13 | -0.0377 | inactive
yuri (yuri gagarin) | DRSC01972 | 0.698 | -0.0246 | -11.3 | inactive
yuri (yuri gagarin) | DRSC28910 | -0.00652 | 1.48 | -0.286 | inactive
